From US9862749B2, “Analogue peptide CMA3 derived from CM-MA peptide and use thereof” (Industry-Academic Cooperation Foundation, Chosun University, priority 2014, dated 2018)

System: E. coli membrane
Assay: Confocal microscopy of TAMRA-labelled peptide on E. coli
Assay type: cell-based
Conditions: TAMRA attached to C-terminal; 1/2 the MIC, 37° C., 10 minutes

Q: How did the “location of the peptide on E. coli” value turn out when `CC[C@H](C)[C@H](NC(=O)CNC(=O)[C@@H](NC(=O)[C@H](Cc1c[nH]cn1)NC(=O)[C@H](CCCCN)NC(=O)[C@H](CCCCN)NC(=O)[C@H](CC(C)C)NC(=O)[C@H](CCCCN)NC(=O)[C@H](Cc1c[nH]c2ccccc12)NC(=O)[C@@H](N)CCCCN)[C@@H](C)CC)C(=O)NCC(=O)N[C@@H](CCCCN)C(=O)N[C@@H](Cc1c[nH]cn1)C(=O)N[C@@H](Cc1ccccc1)C(=O)N[C@@H](CC(C)C)C(=O)N[C@@H](CO)C(=O)N[C@@H](C)C(=O)N[C@@H](CCCCN)C(=O)N[C@@H](CCCCN)C(=O)N[C@@H](Cc1ccccc1)C(N)=O` [CMA3] (H-KWKLKKHIGIGKHFLSAKKF-NH2; N-terminus assumed) was run?
A: observed on E. coli membrane

Q: For `CC[C@H](C)[C@H](NC(=O)CNC(=O)[C@@H](NC(=O)[C@H](CCCCN)NC(=O)[C@H](CCCCN)NC(=O)[C@H](Cc1ccccc1)NC(=O)[C@H](CC(C)C)NC(=O)[C@H](CCCCN)NC(=O)[C@H](Cc1c[nH]c2ccccc12)NC(=O)[C@@H](N)CCCCN)[C@@H](C)CC)C(=O)NCC(=O)N[C@@H](CCCCN)C(=O)N[C@@H](Cc1ccccc1)C(=O)N[C@@H](CC(C)C)C(=O)N[C@@H](Cc1c[nH]cn1)C(=O)N[C@@H](CO)C(=O)N[C@@H](C)C(=O)N[C@@H](CCCCN)C(=O)N[C@@H](CCCCN)C(=O)N[C@@H](Cc1ccccc1)C(N)=O` [CA-MA, reference compound] (H-KWKLFKKIGIGKFLHSAKKF-NH2), which “location of the peptide on E. coli” value is on record?
A: observed on E. coli membrane

Peptide text beside a SMILES is read from it.
